Compound potency records, mixed from different reports. Data source: NIAID ChemDB in PubChem.

All rows: tests in culture; species: HIV-1; cells: MT-4; read-out: EC50

An empty or dashed field is not shown. ECn: concentration that inhibits the pathogen or its effect by n%. Rows are shuffled and stem from different studies.

| smiles | strain or isolate | mutations | method | conditions | result |
|---|---|---|---|---|---|
| CCOC(=O)c1csc(N2N=C(c3ccccc3)CC2c2ccc(Cl)cc2)n1 | IIIB |  | MTT / absorbance |  | >11.51 µM |
| Cc1cc(C#N)cc(C)c1Oc1nc(Nc2ccc(C#N)cc2)nc(N)c1Br | IIIB | K103N | MTT |  | 0.00184 µM |
| Cc1ccnc2c1NC(=O)c1cccnc1N2C1CC1 | IIIB |  | MTT |  | 0.281 µM |
| Cc1cn([C@H]2C[C@H](N=[N+]=[N-])[C@@H](CO)O2)c(=O)[nH]c1=O.O=C(O)P(=O)(O)O | IIIB |  | p24 |  | 0.676 µM |
| CNS(=O)(=O)c1ccc(CN2CCC(/C=N/Nc3nc(Oc4c(C)cc(C#N)cc4C)c4sccc4n3)CC2)cc1 | IIIB |  | MTT |  | >3.82 µM |
| CN1C(=O)N(Cc2ccccc2)S(=O)(=O)c2cscc21 | MN |  | syncytia |  | 65.8 µM |
| CCc1c(Sc2cc(C)cc(C)c2)n(COCCO)c(=O)[nH]c1=O | IIIB MKC-442-resistant (RT Y181C) | RT-Y181C | cytopathic effect / MTT |  | 2.4 µM |
| Cc1cccc(-n2nnnc2SCC(=O)Nc2ccccc2[N+](=O)[O-])c1C |  |  | p24 | 10% FBS | <0.063 µM |
| Cc1cc(C#N)cc(C)c1Oc1nc(N/N=C/c2ccc(C#N)c(F)c2)nc2ccsc12 | RES056 | K103N/Y181C | MTT |  | >56.5 µM |
| O=c1[nH]cnc2c1ncn2[C@H]1CC[C@@H](CO)O1 | IIIB MKC-442-resistant (RT Y181C) | RT-Y181C | cytopathic effect / MTT |  | 6.5 µM |
| O=C(N/N=C/c1cccc(O)c1)c1csc(N2N=C(c3ccccc3)CC2c2ccc(Cl)cc2)n1 | IIIB |  | MTT / absorbance |  | >66.85 µM |
| CC(C)Nc1cccnc1N1CCN(C(=O)c2cc3cc(NS(C)(=O)=O)ccc3[nH]2)CC1 | IIIB | L100I | MTT |  | 2.23 µM |
| Cc1ccc(/C=N/NC(=O)c2csc(N3N=C(c4ccccc4)CC3c3ccc(Cl)cc3)n2)cc1 | IIIB |  | MTT / absorbance |  | >125 µM |
| Cc1cn([C@H]2CC[C@@H](CO)O2)c(=O)[nH]c1=O.O=C(O)P(=O)(O)O | IIIB |  | p24 |  | 5 µM |
| Fc1cccc(F)c1Cn1c(-c2c(F)cccc2F)nc2c(Br)cccc21 |  | RT-L100I | cytopathic effect / MTT |  | 0.3 µM |
| Nc1nc(-c2ccc(Br)cc2Br)c(SCC(=O)Nc2ccccc2Br)s1 | IIIB |  | MTT |  | >33.18 µM |
| CC(=O)Nc1cccc2c1nc(-c1c(F)cccc1F)n2Cc1c(F)cccc1F |  | RT-K103N | cytopathic effect / MTT |  | >20 µM |
| C#Cc1ccc(Nc2nccc(Oc3c(C)cc(-c4cn(CCc5ccccc5)nn4)cc3C)n2)cc1 | IIIB | F227L and V106A | MTT |  | >5.66 µM |
| CC(C)CN(C[C@@H](O)[C@H](Cc1ccccc1)NC(=O)[C@H](CC(N)=O)NC(=O)c1ccc2ccccc2n1)C(=O)NC(C)(C)C | NL4-3 |  | p24 |  | <0.2 µM |
| COC(=O)N[C@H](C(=O)N[C@@H](Cc1ccccc1)[C@@H](O)CN(Cc1ccc(-c2ccccn2)cc1)NC(=O)[C@@H](NC(=O)OC)C(C)(C)C)C(C)(C)C | NL4-3 | L10F M46I I54V V82A LPV resistant |  |  | 0.033 µM |
| NC(=O)c1ncn([C@H]2O[C@@H](COP(=O)(O)OC[C@@H]3C=C[C@H](n4cnc5c(=O)[nH]cnc54)O3)[C@H](O)[C@@H]2O)n1 | IIIB MKC-442-resistant (RT Y181C) | RT-Y181C | cytopathic effect / MTT |  | >17.5 µM |
| Cc1cc([N+](=O)[O-])ccc1NC(=O)CSc1sc(N)nc1-c1ccc(Br)cc1Br | IIIB |  | MTT |  | >30.81 µM |
| Cc1cc(C#N)cc(C)c1Oc1nc(Nc2ccc(C#N)cc2)ncc1SCC(=O)N1CCSCC1 |  | F227L V106A | MTT |  | 1.09 µM |
| Cc1cc(C#N)cc(C)c1Oc1nc(N/N=C/C2CCN(Cc3ccc(S(=O)(=O)NC4CC4)cc3)CC2)nc2ccsc12 | IIIB |  | MTT |  | >4.03 µM |
| O=C(CSc1sc(Cl)nc1-c1ccc(Br)cc1Br)Nc1cccnc1Cl | IIIB | L100I | MTT |  | 7.68 µM |
| Cc1cn([C@H]2C[C@H](N=[N+]=[N-])[C@@H](CO)O2)c(=O)[nH]c1=O | IIIB |  | MTT |  | 0.0075 µM |
| CC(C)(C)NC(=O)[C@@H]1C[C@@H]2CCCC[C@@H]2CN1C[C@@H](O)[C@H](Cc1ccccc1)NC(=O)[C@H](CC(N)=O)NC(=O)c1ccc2ccccc2n1 | NL4-3 | PR-M46I L63P | p24 |  | <0.025 µM |
| Nc1nc(NCCc2ccccc2)c2ncn(CCOCP(=O)(O)O)c2n1 | IIIB |  | cytopathic effect / MTT |  | 9.9 µg/mL |
| O=C(N/N=C/c1ccc(Cl)cc1)c1csc(N2N=C(c3ccccc3)CC2c2ccc(Cl)cc2)n1 | IIIB |  | MTT / absorbance |  | >125 µM |
| Cc1cn([C@H]2C=C[C@@H](COP(=O)(O)OCc3ccccc3)O2)c(=O)[nH]c1=O |  |  | cytopathic effect |  | 0.034 µM |
| CC(C)c1nc(CN(C)C(=O)N[C@H](C(=O)N[C@@H](Cc2ccccc2)C[C@H](O)[C@H](Cc2ccccc2)NC(=O)OCc2cncs2)C(C)C)cs1 | NL4-3 | PR-D30N N88D | p24 |  | <0.01 µM |
| C#Cc1ccc(Nc2nccc(Oc3c(C)cc(-c4cn(CC(=O)Nc5ccc(S(C)(=O)=O)cc5)nn4)cc3C)n2)cc1 | IIIB |  | MTT |  | 0.056 µM |
| CCc1cc(NCc2nc3c(Cl)ccc(Cl)c3o2)c(=O)[nH]c1C | NL4-3 | RT-A98G | p24 |  | 0.8 µM |
| Nc1cccc2c1nc(-c1c(F)cccc1F)n2Cc1c(F)cccc1F |  | RT-L100I | cytopathic effect / MTT |  | 0.3 µM |
| c1cc(CN2CCCNCCNCCCNCC2)ccc1CN1CCCNCCNCCCNCC1 | NL4-3 | D-CA-resistant | cytopathic effect / MTT |  | 0.02 µM |
| N#CCN1C(=O)N(Cc2ccccc2)S(=O)(=O)c2cscc21 | ADP/141 | RT-D67N K70R T215F K219Q | syncytia |  | 1.2 µM |
| Cc1cc([N+](=O)[O-])ccc1NC(=O)CSc1sc(Cl)nc1-c1ccc(Br)cc1Br | IIIB | L100I | MTT |  | 2.58 µM |
| O=C(CSc1nnnn1-c1cccc(Cl)c1Cl)Nc1ccccc1[N+](=O)[O-] |  |  | p24 | 10% FBS | <0.078 µM |
| C=C1[C@H](CO)[C@@H](O)C[C@@H]1n1cnc2c(=O)[nH]c(N)nc21 | IIIB | E138K | MTT |  | 0.008 µM |
| Cc1cn([C@H]2C[C@H](N=[N+]=[N-])[C@@H](CO)O2)c(=O)[nH]c1=O | IIIB/LAI |  | p24 |  | 0.026 µM |
| Cc1cn([C@H]2C[C@H](N=[N+]=[N-])[C@@H](COP(=O)(OCc3ccccc3)OCc3ccccc3)O2)c(=O)[nH]c1=O |  |  | cytopathic effect |  | 0.98 µM |
| CCN1C(=O)N(Cc2ccccc2)S(=O)(=O)c2cscc21 | NDK |  | syncytia |  | 15.5 µM |
| CCc1cccc2c1nc(-c1c(F)cccc1F)n2Cc1c(F)cccc1F | NL4-3 |  | cytopathic effect / MTT |  | 0.5 µM |
| C#Cc1ccc(Nc2nccc(Oc3c(C)cc(-c4cn(Cc5ccc(S(N)(=O)=O)cc5)nn4)cc3C)n2)cc1 | RES056 |  | MTT |  | >86.44 µM |
| CC(C)CN(C[C@@H](O)[C@H](Cc1ccccc1)NC(=O)O[C@H]1CCOC1)S(=O)(=O)c1ccc(N)cc1 | NL4-3 | L10F V32I M46I I45M A71V I84V APV resistant |  |  | >1 µM |
| Cc1cn([C@H]2C=C[C@@H](COP(=O)(OCc3ccccc3)OCc3ccccc3)O2)c(=O)[nH]c1=O |  |  | cytopathic effect |  | >100 µM |
| CCCCNc1nc(N)nc2c1[nH]c[n+]2C[C@@H](C)OCP(=O)(O)O | IIIB |  | cytopathic effect / MTT |  | 13.1 ± 4.3 µg/mL |
| Nc1ccccc1NC(=O)CSc1sc(Cl)nc1-c1ccc(Br)cc1Br | IIIB | K103K | MTT |  | >13.08 µM |
| COc1ccc(S(=O)(=O)N(CC(C)C)C[C@@H](O)[C@H](Cc2ccccc2)NC(=O)O[C@H]2CO[C@H]3OCC(F)(F)[C@H]32)cc1 | NL4-3 | A28S L33F V82I GRL04810-resistant |  |  | 0.033 µM |
| C#Cc1ccc(Nc2nccc(Oc3c(C)cc(-c4cn(CC(=O)Nc5ccc(F)cc5)nn4)cc3C)n2)cc1 | IIIB | F227L and V106A | MTT |  | >1.41 µM |
| Cc1cn([C@H]2C=C[C@@H](COP(=O)(O)O)O2)c(=O)[nH]c1=O |  |  | cytopathic effect |  | 0.71 µM |
| C#Cc1ccc(Nc2nccc(Oc3c(C)cc(-c4cn(Cc5ccccc5[N+](=O)[O-])nn4)cc3C)n2)cc1 | RES056 |  | MTT |  | >7.22 µM |
| C[C@H](Cn1cnc2c(N)ncnc21)OCP(=O)(O)O | IIIB |  | cytopathic effect / MTT |  | 1.91 ± 0.41 µg/mL |
| Cc1ccnc2c1NC(=O)c1cccnc1N2C1CC1 | IIIB | E138K | MTT |  | 0.18 µM |
| NS(=O)(=O)c1ccc(NC(=O)CSc2nnnn2-c2cccc(Cl)c2Cl)c(Cl)c1 |  |  | p24 | 10% FBS | <0.062 µM |
| Cc1cc(C#N)cc(C)c1Oc1nc(N/N=C/c2ccc(C#N)cc2F)nc2ccsc12 | IIIB |  | MTT |  | 0.0413 µM |
| Cc1cc(C)c(-n2nnnc2SCC(=O)Nc2ccc(C(=O)NCCCN(C)C)cc2Cl)c(C)c1 |  |  | p24 | 50% human serum | <0.062 µM |
| C[C@H](C[n+]1c[nH]c2c(N(C)C)nc(N)nc21)OCP(=O)(O)O | IIIB |  | cytopathic effect / MTT |  | 2.3 ± 0.2 µg/mL |
| CCN1C(=O)N(Cc2ccccc2Cl)S(=O)(=O)c2cscc21 | RF |  | syncytia |  | 10.9 µM |
| Cc1cn([C@H]2C[C@H](N=[N+]=[N-])[C@@H](CO)O2)c(=O)[nH]c1=O | SCV 4005 |  | RT activity |  | 0.0084 µM |
| C#Cc1ccc(Nc2nccc(Oc3c(C)cc(-c4cn(Cc5cccc([N+](=O)[O-])c5)nn4)cc3C)n2)cc1 | IIIB | L100I | MTT |  | 9.45 µM |
| O=C(N/N=C/c1c(Cl)cccc1Cl)c1csc(N2N=C(c3ccccc3)CC2c2ccc(Cl)cc2)n1 | IIIB |  | MTT / absorbance |  | >6.26 µM |

5 of the rows above, restated:

| smiles | strain or isolate | mutations | method | conditions | result |
|---|---|---|---|---|---|
| Cc1cn([C@H]2C=C[C@@H](COP(=O)(O)OCc3ccccc3)O2)c(=O)[nH]c1=O |  |  | cytopathic effect |  | 0.034 µM |
| Fc1cccc(F)c1Cn1c(-c2c(F)cccc2F)nc2c(Br)cccc21 |  | RT-L100I | cytopathic effect / MTT |  | 0.3 µM |
| CN1C(=O)N(Cc2ccccc2)S(=O)(=O)c2cscc21 | MN |  | syncytia |  | 65.8 µM |
| Nc1ccccc1NC(=O)CSc1sc(Cl)nc1-c1ccc(Br)cc1Br | IIIB | K103K | MTT |  | >13.08 µM |
| Cc1cn([C@H]2C[C@H](N=[N+]=[N-])[C@@H](CO)O2)c(=O)[nH]c1=O | IIIB |  | MTT |  | 0.0075 µM |